# Laboratory results taken from US8809377B2, “Deubiquitinase inhibitors and methods for use of the same” (The Regents of the University of Michigan, priority 2010, dated 2014).
# Tested on: Listeria monocytogenes
# Assay: Listeria monocytogenes infection of macrophages, CFU
# Settings: RAW264.7 macrophages, 5 μM, 8 hr infection, MOI 1
smiles,measurement,value
CCC[C@H](NC(=O)/C(C#N)=C/c1cccc(Br)n1)c1ccccc1 [WP1130],reduction in Listeria monocytogenes titers (intracellular colony forming units),3-10 fold
